Consider one compound from paper PMC6099630, “Synthesis, Antiviral and Cytotoxic Activity of Novel Terpenyl Hybrid Molecules Prepared by Click Chemistry” (Molecules : A Journal of Synthetic Chemistry and Natural …, 2018).

One series deals with HSV-1 Field strain. The series can be described thus: Cytopathic effect assay, HSV-1 Field. The following applies: selectivity index SI = CC50/CE50; CC50 on Vero cells. In kind it is cell-based, herpes simplex virus type 1 (HSV-1). How it is done:
(§1) The synthetic compounds and acyclovir (ACV, Sigma) were dissolved in dimethylsulfoxide (DMSO) and diluted with Eagle’s minimal essential medium supplemented with 1.5% inactivated fetal bovine serum (FBS) and 50 μg/mL gentamicin (MEM 1.5%).
(§2) Vero and Hep-2 cells were grown in MEM supplemented with 10% inactivated FBS and 50 µg/mL gentamicin and maintained in MEM 1.5%. Raw 264.7 cells were grown in Dulbecco’s Modified Eagle’s Medium (DMEM) supplemented with 10% FBS and 50 µg/mL gentamicin and maintained in DMEM 1.5%. C6 cells were grown in DMEM-F12 supplemented with 2.5% FBS50 µg/mL gentamicin and 15% horse serum (HS) and maintained in DMEM-F12 supplemented with 1.5% FBS. HSV-1 KOS, thymidine kinase-deficient (TK−) B2006 and Field strains of HSV-1 were used and propagated at low multiplicity of infection (m.o.i.) on Vero cells.
(§3) Cells grown in 96-well plates were infected or not with HSV-1 (KOS, Field and B2006 strains) at a m.o.i. of 0.1 PFU/cell. After 1-h adsorption at 37 °C, the inoculum was removed and medium containing or not the compounds was added, in triplicate. […] Then, cells were fixed with 10% formaldehyde for 15 min at room temperature, washed once with distilled water and stained with 0.05% crystal violet in 10% ethanol over 30 min. […] The absorbance of each well was measured on an Eurogenetics MPR-A 4i microplate reader using a test wave-length of 590 nm.
(Cytopathic effects are the visible damage that an infection or toxin causes in cultured cells.)

The test system of series [1] is HSV-1 B2006 strain (thymidine kinase-deficient, TK−). The format is cell-based, herpes simplex virus type 1 (HSV-1). The settings on record: selectivity index SI = CC50/CE50; CC50 on Vero cells. How it is done: as §1, §2, §3

Take `Nc1nc2c(ncn2COCCO)c(=O)[nH]1` [ACV, Acyclovir]: the “SI Field” value in the series on HSV-1 Field strain is over 13.7. Moreover, the “SI B2006” value in series [1] was over 20.
